The values that follow come from US20220356230A1 (published 2022).

In this test the target is MERS-CoV (SARS-CoV-2) Spike Protein S1 (aa 1-725, His Tag) (Sino 40069-V08H) (MERS-CoV, UniProt K9N5Q8 18-725).

B1: mAb10913 (antibody, V domains shown)
VH: EVQLVESGGGLVQPGGSLRLSCAASGFTFRNYEMNWVRQAPGKGLEWVSYITSSGSTMYYADSVKGRFTISRDNAKNSLYLQMNSLRAEDTAVYYCARDGFYYYYAMDVWGQGTTVTVSS
VL: QSVLTQPPSVSAAPGQKVTISCSGSSSNIGNNYVSWYQQLPGTAPKLLIYDNNKRPSGIPDRFSGSKSGTSATLGITGLQTGDEADYYCGTWDSSLSVGRVFGTGTKVTVLG
Consider B1, for which the “Binding signal (MFI)” value was found to be 14 MFI.
